Pooled drug test results. Numbers come from NIAID ChemDB, via PubChem.

Shared fields: whole-cell or culture tests; organism: Mycobacterium avium; measure: MIC

Rows are shuffled and stem from different studies.

| structure | conditions | read by | strain | value |
|---|---|---|---|---|
| CCc1cc(C(N)=S)ccn1 |  |  | 3090 | >8 µg/mL |
| O=C1c2cc(Cl)ccc2OP(=O)(c2ccccc2)N1c1ccc(Cl)cc1 | 7 d |  | MY330/88 | 16 µM |
| CO[C@H]1/C=C/O[C@@]2(C)Oc3c(C)c(O)c4c(O)c(c5c(c4c3C2=O)NC2(CCN(CC(C)C)CC2)N=5)=NC(=O)/C(C)=C\C=C\[C@H](C)[C@H](O)[C@@H](C)[C@@H](O)[C@@H](C)[C@H](OC(C)=O)[C@@H]1C |  |  | 5-74 | <0.15 µg/mL |
| CC[C@H]1OC(=O)[C@H](C)[C@@H](O[C@H]2C[C@@](C)(OC)[C@@H](O)[C@H](C)O2)[C@H](C)[C@@H](O[C@@H]2O[C@H](C)C[C@H](N(C)C)[C@H]2O)[C@](C)(OC)C[C@@H](C)C(=O)[C@H](C)[C@@H](O)[C@]1(C)O |  | broth dilution | N-444 | 16 µg/mL |
| CC(C)N=c1cc2n(-c3ccc(Cl)cc3)c3ccccc3nc-2cc1Nc1ccc(Cl)cc1 |  |  | 453 | 0.06 µg/mL |
| O=C(Nc1ccc(Br)cc1)c1cc(Cl)ccc1OP(=O)(OCc1ccccc1)OCc1ccccc1 | 14 d |  | MY330/88 | 62.5 µM |
| CC1CN(c2c(F)c(N)c3c(=O)c(C(=O)O)cn(C4CC4)c3c2F)CCN1C |  |  | RG1 | 0.25 µg/mL |
| CCN1C(C#N)=C(C#N)N=C(c2cccs2)[C@@H]1/C=C/c1ccccc1 |  | broth dilution / visual reading |  | 12.5 µg/mL |
| CO[C@H]1/C=C/O[C@@]2(C)Oc3c(C)c(O)c4c(O)c(c(/C=N/N5CCN(C)CC5)c(O)c4c3C2=O)NC(=O)/C(C)=C\C=C\[C@H](C)[C@H](O)[C@@H](C)[C@@H](O)[C@@H](C)[C@H](OC(C)=O)[C@@H]1C |  |  | Isolate 90-1799 | >30 µg/mL |
| CC[C@H]1OC(=O)[C@H](C)[C@@H](O[C@H]2C[C@@](C)(OC)[C@@H](O)[C@H](C)O2)[C@H](C)[C@@H](O[C@@H]2O[C@H](C)C[C@H](N(C)C)[C@H]2O)[C@](C)(OC)C[C@@H](C)C(=O)[C@H](C)[C@@H](O)[C@]1(C)O |  |  | 3011 | 1 µg/mL |
| CC(C)(C)c1cnc(C(=O)/C=C/c2ccccc2F)cn1 |  | absorbance | Chester | >100 µg/mL |
| CC[C@@H](CO)NCCN[C@@H](CC)CO |  |  | RG0 | 16 µg/mL |
| CCN1C(C#N)=C(C#N)N=C(c2ccsc2)[C@H]1/C=C/c1ccccc1 |  | broth dilution / visual reading |  | 12.5 µg/mL |
| CC(C)(C)c1cnc(C(=O)/C=C/c2ccc(Br)cc2)cn1 |  | absorbance | Chester | >50 µg/mL |
| O=C(Nc1ccc(C(F)(F)F)cc1)c1cc(Cl)ccc1OP(=O)(OCc1ccccc1)OCc1ccccc1 | 14 d |  | MY330/88 | 32 µM |
| O=C(/C=C/c1ccccc1F)c1cnccn1 |  | absorbance | Chester | 100 µg/mL |
| CC[C@H]1OC(=O)[C@H](C)[C@@H](O[C@H]2C[C@@](C)(OC)[C@@H](O)[C@H](C)O2)[C@H](C)[C@@H](O[C@@H]2O[C@H](C)C[C@H](N(C)C)[C@H]2O)[C@](C)(OC)C[C@@H](C)C(=O)[C@H](C)[C@@H](O)[C@]1(C)O | pH 7.4 | broth dilution / radiometric | 3354 | 4 µg/mL |
| O=C(/C=C/c1ccccc1Br)c1cnccn1 |  | absorbance | Chester | 100 µg/mL |
| C[C@H]1COc2c(N3CCN(C)CC3)c(F)cc3c(=O)c(C(=O)O)cn1c23 |  | broth dilution | N-444 | 16 µg/mL |
| CC(C)Cc1cnc(C(=O)/C=C/c2ccc(Cl)cc2)cn1 |  | absorbance | Chester | >25 µg/mL |
| CCN1CC(c2ccsc2)NC(C#N)=C1C#N |  | broth dilution / visual reading |  | 12.5 µg/mL |
| CC[C@H]1OC(=O)[C@H](C)[C@@H](O[C@H]2C[C@@](C)(OC)[C@@H](O)[C@H](C)O2)[C@H](C)[C@@H](O[C@@H]2O[C@H](C)C[C@H](N(C)C)[C@H]2O)[C@](C)(O)C[C@@H](C)CN(C)[C@H](C)[C@@H](O)[C@]1(C)O |  |  | 3011-C clarithromycin-resistant | >512 µg/mL |
| CC(C)(C)c1cnc(C(=O)/C=C/c2ccccc2Br)cn1 |  | absorbance | Chester | 100 µg/mL |
| O=C(Nc1ccccc1)c1ccccc1OP(=O)(OCc1ccccc1)OCc1ccccc1 | 7 d |  | MY330/88 | 500 µM |
| CCN1C(C#N)=C(C#N)N=C(c2ccsc2)C1/C=C/c1ccc(-c2ccccc2)cc1 |  | broth dilution / visual reading |  | 12.5 µg/mL |
| CC[C@H]1OC(=O)[C@H](C)[C@@H](O[C@H]2C[C@@](C)(OC)[C@@H](O)[C@H](C)O2)[C@H](C)[C@@H](O[C@@H]2O[C@H](C)C[C@H](N(C)C)[C@H]2O)[C@](C)(OC)C[C@@H](C)C(=O)[C@H](C)[C@@H](O)[C@]1(C)O |  |  | LR114F | 2 µg/mL |
| CC(C)(C)c1cnc(C(=O)/C=C/c2ccccc2Cl)cn1 |  | absorbance | Chester | >100 µg/mL |
| NNC(=O)c1ccncc1 |  | broth dilution / visual reading |  | 0.1 µg/mL |

The last 2 rows once more:

structure,conditions,read by,strain,value
CC(C)(C)c1cnc(C(=O)/C=C/c2ccccc2Cl)cn1,,absorbance,Chester,>100 µg/mL
NNC(=O)c1ccncc1,,broth dilution / visual reading,,0.1 µg/mL

An empty or dashed field is not shown.